Measured values from several laboratories, pooled; numbers as filed in NIAID ChemDB.

All rows: target-level tests; species: HIV-1; target: RNase H

Lines come from different laboratories, so protocols vary.

structure	read-out	mutations	dose	read by	value
NC(=O)c1c(NC(=O)c2ccccc2O)sc2c1CCCCC2	IC50	-	-	RNase H / fluorescence	66.4 µM
Nc1nc(OCCc2ccc([N+](=O)[O-])cc2)c2ncn([C@@H]3O[C@H](COP(O)(=S)O[C@H]4[C@@H](F)[C@H](n5cnc6c(N)ncnc65)O[C@@H]4CO)[C@@H](O)[C@H]3O)c2n1	Ki	-	-	RNase H	11.5 µM
CCOC(=O)C(=O)CC(=O)/C=C/c1cc(-c2ccccc2)cn1Cc1ccc(F)cc1	IC50	-	-	substrate cleavage / fluorescence	8 µM
Cc1ccc(Cl)cc1Nc1nc(C(F)(F)F)ccc1C(=O)NN1CCN(c2cccc(Cl)c2)CC1	IC50	-	-	RNase H / absorbance	18 µM
CC(=O)Oc1ccc(O)c2c1C(=O)c1ccccc1C2=O	IC50	-	-	-	>100 µM
Nc1ncnc2c1ncn2[C@@H]1O[C@H](CO)[C@@H](OP(=O)(O)OC[C@H]2O[C@@H](n3ccc(=O)[nH]c3=O)[C@H](O)[C@@H]2O)[C@H]1O	inhibition	-	50 µM	RNase H	2%
COc1ccccc1-c1nc2sc3c(c2c(=O)o1)CCCCC3	IC50	-	-	RNase H / fluorescence	100 µM
COCOC[C@@]12[C@H](O)C[C@@H](C)[C@]3(C[C@@H](c4ccoc4)OC3=O)[C@H]1CCC(=O)[C@]21CO1	inhibition	-	100 µM	RNase H / fluorescence	20%
O=c1oc(-c2ccc(O)cc2)nc2sc3c(c12)CCCCC3	IC50	-	-	RNase H / fluorescence	21 µM
Cc1ccc(Cn2cccc2/C=C/C(=O)CC(=O)C(=O)O)c(C)c1	IC50	-	-	substrate cleavage / fluorescence	19.3 µM
CCCCCC(=O)Oc1ccc(O)c2c1C(=O)c1ccccc1C2=O	IC50	-	-	-	>100 µM
COc1ccc(-c2nc3sc4c(c3c(=O)o2)CCCCC4)cc1	IC50	-	-	RNase H / fluorescence	14.1 µM
Nc1nc2c(ncn2[C@@H]2O[C@H](COCO[C@@H]3[C@H](O)[C@@H](CO)O[C@H]3n3cnc4c(=O)[nH]c(N)nc43)[C@@H](O)[C@H]2O)c(=O)[nH]1	inhibition	-	50 µM	RNase H	80%
Cc1nc2ccccc2c(=O)[nH]1	IC50	-	-	RNase H / fluorescence	3.46 µM
C#CCOc1ccc(O)c2c1C(=O)c1ccccc1C2=O	IC50	-	-	-	>100 µM
O=c1oc(-c2cccc(O)c2)nc2sc3c(c12)CCCCC3	IC50	-	-	RNase H / fluorescence	33.9 µM
O=C1Cc2ccc(-c3ccco3)cc2C(=O)N1O	Ki	-	-	RNase H / substrate cleavage / fluorescence	0.02 µM
CCOC(=O)C(=O)CC(=O)/C=C/c1cccn1Cc1ccccc1Cl	IC50	-	-	RNase H / fluorescence	8.06 µM
CCCCN(CCCC)c1nc2c(ncn2[C@@H]2O[C@H](COP(=O)(O)O[C@H]3[C@@H](F)[C@H](n4cnc5c(=O)[nH]c(N)nc54)O[C@@H]3CO)[C@@H](O)[C@H]2O)c(=O)[nH]1	inhibition	-	50 µM	RNase H	12%
CC(=O)Oc1ccc(OC(C)C(C)=O)c2c1C(=O)c1ccccc1C2=O	IC50	-	-	-	>100 µM
O=C(/C=C/c1cccn1Cc1ccccc1Cl)CC(=O)C(=O)O	IC50	N474A	-	substrate cleavage / fluorescence	>100 µM
Nc1ncnc2c1ncn2[C@@H]1O[C@H](CO)[C@@H](OP(O)(=S)OC[C@H]2O[C@@H](n3cnc4c(=O)[nH]c(NCc5cccc6ccccc56)nc43)[C@H](O)[C@@H]2O)[C@H]1F	inhibition	-	50 µM	RNase H	61%

The first 2 rows once more:

structure,read-out,mutations,dose,read by,value
NC(=O)c1c(NC(=O)c2ccccc2O)sc2c1CCCCC2,IC50,-,-,RNase H / fluorescence,66.4 µM
Nc1nc(OCCc2ccc([N+](=O)[O-])cc2)c2ncn([C@@H]3O[C@H](COP(O)(=S)O[C@H]4[C@@H](F)[C@H](n5cnc6c(N)ncnc65)O[C@@H]4CO)[C@@H](O)[C@H]3O)c2n1,Ki,-,-,RNase H,11.5 µM

Percent inhibition refers to the dose given; in toxicity tests it is the harm to the cells. An empty or dashed field is not shown. ICn is the concentration giving n% inhibition.